Measured values reported in patent publication US20160122307A1, “PERHYDROQUINOXALINE DERIVATIVES” (DR. AUGUST WOLFF GMBH & CO. KG ARZNEIMITTEL, priority 2013, published 2016).

By UniProt entry, the sequences of proteins in these tests, tags left out.
UniProt P41145, whole entry: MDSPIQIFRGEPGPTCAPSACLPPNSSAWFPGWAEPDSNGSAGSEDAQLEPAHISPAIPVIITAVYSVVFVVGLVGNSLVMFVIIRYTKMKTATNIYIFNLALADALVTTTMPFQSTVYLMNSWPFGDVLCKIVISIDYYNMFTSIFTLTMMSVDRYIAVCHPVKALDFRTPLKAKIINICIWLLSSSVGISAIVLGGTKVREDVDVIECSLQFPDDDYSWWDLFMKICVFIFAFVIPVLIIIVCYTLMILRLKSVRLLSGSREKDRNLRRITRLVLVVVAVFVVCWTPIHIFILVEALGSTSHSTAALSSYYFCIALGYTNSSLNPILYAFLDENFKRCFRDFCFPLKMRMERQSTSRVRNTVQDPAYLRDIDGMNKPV

Target: Human opiate κ receptors (Homo sapiens, UniProt P41145)
Experiment: κ opioid receptor functional assay, [35S]GTPγS binding (assay C)
Assay type: biochemical

Compound: O=C(c1ccccc1)N1CCN(C(=O)Cc2ccc(Cl)c(Cl)c2)C2C(N3CCCC3)CCCC21 (centres unmarked) [L, reference compound]
- EC50: 260 nM

Compound: O=C(c1ccccc1)N1CCN(C(=O)Cc2ccc(Cl)c(Cl)c2)C2C(N3CCC(O)C3)CCCC21 (centres unmarked) [R, reference compound]
- EC50: 470 nM
